Measured values from several laboratories, pooled; numbers as filed in NIAID ChemDB.

All rows: whole-cell or culture tests; species: Candida albicans; endpoint: zone

Conditions beyond the fields shown may differ between rows. An empty or dashed field is not shown. a–b is a range or a potency band. Zones are inhibition diameters on agar.

SMILES | strain | tested at | read by | value
Nc1nc(COC(=O)c2ccccc2)cs1 |  | 25 µg/mL |  | <10 mm
CC(=O)N1N=C(c2sc3ccccc3c2Cl)OC1c1ccccc1 |  | 5 µg/disc |  | 14 mm
CN1C(=O)/C(=c2/[nH][nH]c(=O)/c2=C\c2ccccn2)C(=O)c2ccccc21 | ATCC 10231 | 1 mg/mL | agar diffusion | 6 mm
C1=N\n2c(nnc2-c2cccnc2)SCCCCSc2nnc(-c3cccnc3)n2/N=C\c2ccccc2OCCCCOc2ccccc2/1 | RCMB 005003 | 2.5 mg/mL | agar diffusion / agar | 1–5 mm
Cc1nn(-c2ccccc2)c2c1C1(C(=O)N(CCCCCCN3C(=O)C4(SCC(=O)N4c4c(C)n(C)n(-c5ccccc5)c4=O)c4cc(F)ccc43)c3ccccc31)c1c(C)nn(-c3ccccc3)c1O2 | MTCC 227 | 100 µg/mL | agar diffusion | 18 mm
CC(=O)Nc1nc(C)c(-c2n[nH]c(=S)n2N2C(=O)CSC2c2ccc(F)cc2)s1 |  | 100 µg/mL | agar diffusion | 16 mm
CN1C(=O)/C(=c2/[nH][nH]c(=O)/c2=C\c2ccc3c(c2)OCO3)C(=O)c2ccccc21 | ATCC 10231 | 1 mg/mL | agar diffusion | 14 mm
CC(=O)c1ccc(-c2nnc(-c3sc4ccccc4c3Cl)o2)cc1 |  | 5 µg/disc |  | 11 mm
Cn1c(=O)c(-c2[nH][nH]c(=O)c2C=Nc2ccncc2)c(O)c2ccccc21 | ATCC 10231 | 1 mg/mL | agar diffusion | 17 mm
COC1=CC(=O)C[C@@H](C)[C@]12Oc1c(Cl)c(OC)cc(OC)c1C2=O |  | 100 µg/mL | agar diffusion | 34 mm
C[C@@H]1[C@@H](COCC(=O)O)C[C@@H](O[C@H]2[C@H](O)[C@@H](N(Cc3ccc(O)cc3)CC(O)C[N+](C)(C)C)[C@H](O[C@H]3[C@H](O)[C@@H](N(Cc4ccc(O)cc4)CC(O)C[N+](C)(C)C)[C@H](C)O[C@@H]3COCC(=O)O)O[C@@H]2COCC(=O)O)[C@H](N(Cc2ccc(O)cc2)CC(O)C[N+](C)(C)C)[C@H]1O | RCMB 05031 | 1 mg/mL | agar diffusion | 14.5 mm
Cc1ccc(NC(=O)c2ccc(CN3CCN(C)CC3)cc2)cc1Nc1nccc(-c2cccnc2)n1 |  | 100 µM | agar diffusion | 21 mm
Cc1ccc(N=Nc2c(-c3c(O)c4ccccc4n(C)c3=O)[nH][nH]c2=O)cc1 | ATCC 10231 | 1 mg/mL | agar diffusion | 14 mm
COc1ccc(CN(CC(O)C[N+](C)(C)C)[C@@H]2[C@@H](O)[C@H](O[C@@H]3O[C@H](COCC(=O)O)[C@@H](O[C@@H]4C[C@H](COCC(=O)O)[C@@H](C)[C@H](O)[C@H]4N(Cc4ccc(OC)cc4)CC(O)C[N+](C)(C)C)[C@H](O)[C@H]3N(Cc3ccc(OC)cc3)CC(O)C[N+](C)(C)C)[C@@H](COCC(=O)O)O[C@H]2C)cc1 | RCMB 05031 | 1 mg/mL | agar diffusion | 13 mm
C/C=C/C1=CC2=CC(=O)[C@](C)(OC(=O)c3c(C)cc(O)cc3OC)C(=O)C2=CO1 | ATCC 64548 | 0.1 µg/disc | agar diffusion | 0 mm
C[C@@H]1[C@@H](COCC(=O)O)C[C@@H](O[C@H]2[C@H](O)[C@@H](N(Cc3ccc([N+](=O)[O-])cc3)CC(O)C[N+](C)(C)C)[C@H](O[C@H]3[C@H](O)[C@@H](N(Cc4ccc([N+](=O)[O-])cc4)CC(O)C[N+](C)(C)C)[C@H](C)O[C@@H]3COCC(=O)O)O[C@@H]2COCC(=O)O)[C@H](N(Cc2ccc([N+](=O)[O-])cc2)CC(O)C[N+](C)(C)C)[C@H]1O | RCMB 05031 | 1 mg/mL | agar diffusion | 22.3 mm
Cc1ccc2c(c1)C1(SCC(=O)N1c1c(C)n(C)n(-c3ccccc3)c1=O)C(=O)N2CCCCCCBr | MTCC 227 | 100 µg/mL | agar diffusion | 15 mm
Nc1nc(COC(=O)c2ccc(Cl)cc2)cs1 |  | 25 µg/mL |  | <10 mm
Fc1ccc(-c2nnc(-c3sc4ccccc4c3Cl)o2)cc1 |  | 5 µg/disc |  | 12 mm
COc1ccccc1CN(CC(O)C[N+](C)(C)C)[C@@H]1[C@@H](O)[C@H](O[C@@H]2O[C@H](COCC(=O)O)[C@@H](O[C@@H]3C[C@H](COCC(=O)O)[C@@H](C)[C@H](O)[C@H]3N(Cc3ccccc3OC)CC(O)C[N+](C)(C)C)[C@H](O)[C@H]2N(Cc2ccccc2OC)CC(O)C[N+](C)(C)C)[C@@H](COCC(=O)O)O[C@H]1C | RCMB 05031 | 1 mg/mL | agar diffusion | 15.1 mm
CCCCN(CCCC)CC(O)c1cc(Cl)cc2c1-c1ccc(Cl)cc1/C2=C/c1ccc(Cl)cc1 | IFO 0583 | 200 µg/disc | agar diffusion / agar | <10 mm
Cc1nn(-c2ccccc2)c2c1C1(C(=O)N(CCCCCCN3C(=O)C4(SCC(=O)N4c4c(C)n(C)n(-c5ccccc5)c4=O)c4ccccc43)c3ccc(F)cc31)c1c(C)nn(-c3ccccc3)c1O2 | MTCC 227 | 100 µg/mL | agar diffusion | 18 mm
CC(=O)N1N=C(c2sc3ccccc3c2Cl)OC1c1ccc(F)cc1 |  | 5 µg/disc |  | 10 mm
Nc1nc(COC(=O)C2(c3ccc(Cl)cc3)CC2)cs1 |  | 25 µg/mL |  | <10 mm
CC[C@@H](O)C[C@H](C)C1O[C@]1(C)/C=C/C(=O)N[C@H](CO)[C@@H](C)CC |  | 16000 µg/mL | agar diffusion | 12.1 mm
COc1ccccc1/C=c1\c(=O)[nH][nH]\c1=C1/C(=O)c2ccccc2N(C)C1=O | ATCC 10231 | 1 mg/mL | agar diffusion | 10 mm
C[C@H]1[C@H](O)[C@@H](C)/C=C/C=C/C=C/C=C/C=C/C=C/C=C/[C@H](O[C@@H]2O[C@H](C)[C@@H](O)[C@H](N)[C@@H]2O)C[C@@H]2O[C@](O)(C[C@@H](O)C[C@@H](O)CC[C@H](O)[C@@H](O)C[C@@H](O)CC(=O)O[C@H]1C)C[C@H](O)[C@H]2C(=O)O | MTCC 277 | 50 µg/mL | agar diffusion / agar | 23.5 mm
N#Cc1ccc(C(=O)OCc2csc(N)n2)cn1 |  | 25 µg/mL |  | <10 mm
CC(=O)Nc1nc(C)c(-c2n[nH]c(=S)n2N2C(=O)CSC2c2ccccc2O)s1 |  | 100 µg/mL | agar diffusion | 10 mm
C[C@@H]1[C@@H](COCC(=O)O)C[C@@H](O[C@H]2[C@H](O)[C@@H](N(Cc3ccc(Br)cc3)CC(O)C[N+](C)(C)C)[C@H](O[C@H]3[C@H](O)[C@@H](N(Cc4ccc(Br)cc4)CC(O)C[N+](C)(C)C)[C@H](C)O[C@@H]3COCC(=O)O)O[C@@H]2COCC(=O)O)[C@H](N(Cc2ccc(Br)cc2)CC(O)C[N+](C)(C)C)[C@H]1O | RCMB 05031 | 1 mg/mL | agar diffusion | 18.2 mm
O=[N+]([O-])c1cccc(-c2nnc(-c3sc4ccccc4c3Cl)o2)c1 |  | 5 µg/disc |  | 10 mm
CC(=O)N1CCN(c2ccc(OC[C@H]3CO[C@](Cn4ccnc4)(c4ccc(Cl)cc4Cl)O3)cc2)CC1 | C1 | 20 mg/mL | agar diffusion / agar | 18 mm
Clc1ccccc1-c1nnc(-c2sc3ccccc3c2Cl)o1 |  | 5 µg/disc |  | 10 mm
CC(=O)Nc1nc(C)c(-c2n[nH]c(=S)n2N2C(=O)CSC2c2ccc(Br)cc2)s1 |  | 100 µg/mL | agar diffusion | 28 mm
CC(=O)N1N=C(c2sc3ccccc3c2Cl)OC1c1cccc([N+](=O)[O-])c1 |  | 5 µg/disc |  | 10 mm
C=C[C@]1(C)CC[C@H](O)[C@@](C)(CCC=C(C)C)O1 |  | 20000 µg/mL | agar diffusion / agar | 10.86 mm
Cc1ccc2c(c1)C1(C(=O)N2CCCCCCN2C(=O)C3(SCC(=O)N3c3c(C)n(C)n(-c4ccccc4)c3=O)c3cc(C)ccc32)c2c(C)nn(-c3ccccc3)c2Oc2c1c(C)nn2-c1ccccc1 | MTCC 227 | 100 µg/mL | agar diffusion | 18 mm
CC(=O)N1N=C(c2sc3ccccc3c2Cl)OC1c1ccc(Cl)cc1 |  | 5 µg/disc |  | 11 mm

Repeating the first 2 entries:

{"SMILES": "Nc1nc(COC(=O)c2ccccc2)cs1", "tested at": "25 µg/mL", "value": "<10 mm"}
{"SMILES": "CC(=O)N1N=C(c2sc3ccccc3c2Cl)OC1c1ccccc1", "tested at": "5 µg/disc", "value": "14 mm"}